Test results from paper PMC10899660, “Global fungal-host interactome mapping identifies host targets of candidalysin” (Nature Communications, 2024).

Test system: CAK complex
Assay: CAK kinase activity in vitro (ADP-Glo kinase assay)
Type: biochemical
Settings: increasing concentrations of candidalysin
Description: We postulated that the binding of candidalysin to CCNH might be critical for activation of CAK activity to regulate DNA damage repair. […] The importance of this finding is that candidalysin not only induces DNA damage, it may have evolved to specifically recognize CCNH and activate CAK complex, leading to suppression of DDR.

CC[C@H](C)[C@H](NC(=O)CNC(=O)[C@H](CCSC)NC(=O)[C@@H](NC(=O)[C@@H](NC(=O)CNC(=O)[C@@H](NC(=O)[C@@H](NC(=O)[C@@H](N)CO)[C@@H](C)CC)[C@@H](C)CC)[C@@H](C)CC)[C@@H](C)CC)C(=O)N[C@@H](CC(C)C)C(=O)NCC(=O)N[C@@H](CC(N)=O)C(=O)N[C@H](C(=O)N1CCC[C@H]1C(=O)N[C@@H](CCC(N)=O)C(=O)N[C@H](C(=O)N[C@H](C(=O)N[C@@H](CCC(N)=O)C(=O)N[C@H](C(=O)N[C@H](C(=O)N[C@@H](CCSC)C(=O)N[C@@H](CO)C(=O)N[C@H](C(=O)N[C@H](C(=O)N[C@@H](CCCCN)C(=O)N[C@@H](C)C(=O)N[C@@H](Cc1ccccc1)C(=O)N[C@@H](CCCCN)C(=O)NCC(=O)N[C@@H](CC(N)=O)C(=O)N[C@@H](CCCCN)C(=O)O)C(C)C)[C@@H](C)CC)[C@@H](C)CC)[C@@H](C)CC)[C@@H](C)CC)C(C)C)[C@@H](C)CC [Ece1-III]
CAK kinase activity: activated gradually with increasing concentrations
